Anti-infective test results gathered from many reports (values: NIAID ChemDB through PubChem).

All rows: target-level tests; species: HIV-1; target: Reverse transcriptase; read-out: Ki

Neighbouring rows are from separate reports. Blank or dashed fields: not listed here.

structure | strain | changes | read by | conditions | result
O=c1cnc2ccccc2n1CCNC(=S)Nc1ccc(Br)cn1 | - | RT-L100I | nucleotide incorporation | - | 2 µM
Nc1ccn([C@H]2CC[C@@H](COP(=O)(O)OP(=O)(O)OP(=O)(O)O)O2)c(=O)n1 | - | RT-K65R | nucleotide incorporation / radiometric | - | 1.4 µM
O=C(O)c1c[nH]c2ccc(Cl)cc2c1=O | - | - | nucleotide incorporation / radiometric | - | 5.3 µM
Cc1cc2c(cc1C)n1cccc1c(=O)n2CCNC(=S)Nc1ccc(Br)cn1 | - | RT-V106A | nucleotide incorporation | - | 0.03 µM
Cc1cc(C)cc(C(=O)c2cc(Cl)ccc2OCCN2CCC(=O)NC2=O)c1 | - | V106A | RT activity | pseudotyped | >240 µM
O=c1c2cccn2c2ccccc2n1CCNC(=S)Nc1ccc(Cl)cn1 | - | RT-K103N | nucleotide incorporation | - | 3.3 µM
Cc1cc(C)cc(C(=O)c2cc(Cl)ccc2OCCN2C(=O)NC(=O)C(C)C2C)c1 | - | Y181C | RT activity | pseudotyped | 0.21 µM
CC(C)=CCN1Cc2cccc3[nH]c(=S)n(c23)C[C@@H]1C | - | RT-Q161L | - | - | 0.89 µM
O=c1c2cccn2c2cccc(F)c2n1CCNC(=S)Nc1ccc(Br)cn1 | - | - | nucleotide incorporation | - | 0.009 µM
Cc1c(Cc2c(F)cccc2F)nc(N(C)C)[nH]c1=O | - | - | nucleotide incorporation / radiometric | - | 0.9 µM
C[C@@H](CNC(=S)Nc1ccc(Br)cn1)C1CCCCC1 | - | - | - | - | 1.1 µM
Cc1cn([C@H]2C=C[C@@H](COP(=O)(O)OP(=O)(O)OP(=O)(O)O)O2)c(=O)[nH]c1=O | - | RT-M184V | nucleotide incorporation / radiometric | - | 0.19 µM
C[C@H](CNC(=S)Nc1ccc(Br)cn1)C1CCCCC1 | - | - | - | - | >100 µM
O=c1c2cccn2ccn1CCNC(=S)Nc1ccc(Br)cn1 | - | - | nucleotide incorporation | - | 0.018 µM
Cc1cn([C@H]2C=C[C@@H](COP(=O)(O)OP(=O)(O)OP(=O)(O)O)O2)c(=O)[nH]c1=O | - | - | - | - | 0.0492 µM
CC(C)(C)OC(=O)Cn1cnc2c(Oc3ccccc3[N+](=O)[O-])nc(NC(=O)OCc3ccccc3)nc21 | NNRTI-resistant | Y181I | nucleotide incorporation / radiometric | - | 40 µM
C[C@H](CNC(=S)Nc1ccccn1)C1CCCCC1 | - | - | - | - | >100 µM
Nc1ccn([C@@H]2CS[C@H](COP(=O)(O)OP(=O)(O)OP(=O)(O)O)O2)c(=O)n1 | - | RT-Q151M | nucleotide incorporation / radiometric | - | 2.3 µM
Nc1ncnc2c1ncn2CCOCP(=O)(O)OP(=O)(O)OP(=O)(O)O | HXB2D | - | nucleotide incorporation | - | 0.07 µM
Cc1csc(NC(=S)N[C@@H](C)c2cccc3ccccc23)n1 | - | - | - | - | >100 µM
Nc1nc(=O)n([C@@H]2CC[C@H](COP(=O)(O)OP(=O)(O)OP(=O)(O)O)O2)cc1F | - | - | nucleotide incorporation / radiometric | - | 2.8 µM
Cc1c(C(C)c2c(F)cccc2F)nc(N(C)C)[nH]c1=O | - | RT-Y188L | nucleotide incorporation / radiometric | - | 0.7 µM
C[C@H](NC(=S)Nc1ccccn1)c1cccc2ccccc12 | - | - | - | - | >100 µM
O=C(O)Cn1cnc2c(Oc3ccccc3[N+](=O)[O-])nc(NC(=O)OCc3ccccc3)nc21 | NNRTI-resistant | Y188L | nucleotide incorporation / radiometric | - | 35 µM
Cc1cn([C@H]2C=C[C@@H](COP(=O)(O)OP(=O)(O)OP(=O)(O)O)O2)c(=O)[nH]c1=O | - | RT-K103N | RT activity | - | 0.03 µM
Cc1ccc2c(c1)n(CCNC(=S)Nc1ccc(Br)cn1)c(=O)c1cccn12 | - | RT-K103N | nucleotide incorporation | - | 0.5 µM
Nc1ccn([C@H]2CC[C@@H](COP(=O)(O)OP(=O)(O)OP(=O)(O)O)O2)c(=O)n1 | HXB2D | - | nucleotide incorporation | - | 0.14 µM

The first 2 rows once more:

structure	strain	changes	read by	conditions	result
O=c1cnc2ccccc2n1CCNC(=S)Nc1ccc(Br)cn1	-	RT-L100I	nucleotide incorporation	-	2 µM
Nc1ccn([C@H]2CC[C@@H](COP(=O)(O)OP(=O)(O)OP(=O)(O)O)O2)c(=O)n1	-	RT-K65R	nucleotide incorporation / radiometric	-	1.4 µM